Assay results: patent US6514997B2, “Antipicornaviral compounds and compositions, their pharmaceutical uses, and materials for their synthesis” (Agouron Pharmaceuticals, Inc., priority 1999, dated 2003)

Each compound was assayed on HRV-14 (assay: Antirhinoviral H1-HeLa cell culture assay (XTT cell protection, EC50), HRV-14).
Type: cell-based, human rhinovirus (HRV) serotype-14 in H1-HeLa cells
Protocol: Antirhinoviral H1-HeLa Cell Culture Assay:
In this cell protection assay, the ability of compounds to protect cells against HRV infection was measured by the XTT dye reduction method, which is described in Weislow et al., J. Natl. Cancer Inst. […] H1-HeLa cells were infected with HRV-14 at a multiplicity of infection (m.o.i.) of 0.13 (virus particles/cell) or mock-infected with medium only. Infected or mock-infected cells were resuspended at 8×10^5 cells per mL, and incubated with appropriate concentrations of the compounds to be tested. Two days later, XTT/PMS was added to test plates and the amount of formazan produced was quantified spectrophotometrically at 450/650 nm. […] The therapeutic index (TI) was calculated by dividing the CC50 value by the EC50 value.
All strains of human rhinovirus (HRV) for use in this assay were purchased from American Type Culture Collection (ATCC), except for HRV serotype-14 (produced from the infectious cDNA clone constructed by Dr. Robert Rueckert, Institute for Molecular Virology, University of Wisconsin, Madison, Wis.). HRV stocks were propagated and viral assays were performed in H1-HeLa cells (ATCC). Cells were grown in minimal essential medium with 10% fetal bovine serum, available from Life Technologies (Gaithersburg, Md.).

Row | Compound | TI
1 | CCOC(=O)/C=C/[C@H](C[C@@H]1CCNC1=O)NC(=O)[C@H](Cc1ccccc1)n1ccc2cc[nH]c2c1=O [Compound 3] | >8
2 | CCOC(=O)/C=C/[C@H](CCC(N)=O)NC(=O)[C@H](Cc1ccccc1)n1cccc(NC(C)=O)c1=O [Compound 8, trans-(2′S,4S)-4-[2′-(3″-Acetylamino-2″-oxo-2″H-pyridin-1″-yl)-3′-phenypropionylamino]-6-carbamoylhex-2-enoic Acid Ethyl Ester] | >11
3 | CCOC(=O)/C=C/[C@H](CCC(N)=O)NC(=O)[C@H](Cc1ccccc1)n1cccc(NC(=O)C(C)(C)C)c1=O [Compound 9, trans-(2′S,4S)-6-Carbamoyl-4-{2′-[3″-(2′″,2′″-dimethylpropionylamino)-2″-oxo-2″H-pyridin-1″-yl]-3′-phenylpropionylamino}hex-2-enoic Acid Ethyl Ester] | >19
4 | CCOC(=O)/C=C/[C@H](CCC(N)=O)NC(=O)[C@H](Cc1ccccc1)n1ccc(C)c(NC(=O)OCc2ccccc2)c1=O [Compound 12, trans-(2′S,4S)-4-[2′-(3″-Benzyloxycarbonylamino-4″-methyl-2″-oxo-2″H-pyridin-1″-yl)-3′-phenylpropionylamino]-6-carbamoylhex-2-enoic Acid Ethyl Ester] | >133
5 | CCOC(=O)/C=C/[C@H](CCC(N)=O)NC(=O)[C@H](CC1CCCCC1)n1cccc(NC(=O)OCc2ccccc2)c1=O [Compound 15, trans-(2′S,4S)-4-[2′-(3″-Benzyloxycarbonylamino-2″-oxo-2″H-pyridin-1″-yl)-3′-cyclohexylpropionylamino]-6-carbamoyl-hex-2-enoic Acid Ethyl Ester] | >56
6 | O=C1OCC/C1=C\[C@H](C[C@@H]1CCNC1=O)NC(=O)[C@H](Cc1ccc(F)cc1)n1cccc(NC(=O)C2CCCC2)c1=O [Compound 16, trans-(2′″S,2′″S,3′″″S)-Cyclopentanecarboxylic acid(1-{2′-(4″-fluorophenyl)-1′-[2′-(2″″-oxo-dihydrofuran-3″″-ylidene)-1-(2′″″-oxopyrrolidin-3′″″-ylmethyl)ethylcarbamoyl]ethyl}-2-oxo-1,2-dihydropyridin-3-yl)amide] | >31
7 | CCOC(=O)/C=C/[C@H](CCC(N)=O)NC(=O)[C@H](Cc1ccccc1)n1ccc(C)c(NC(=O)c2cc(C)on2)c1=O [Compound 18, trans-(2′S,4S)-6-Carbamoyl-4-(2′-{4″-methyl-3″-[(5′″-methylisoxazole-3′″-carbonyl)amino]-2″-oxo-2″H-pyridin-1″-yl}-3′-phenylpropionylamino)hex-2-enoic Acid Ethyl Ester] | >80
8 | CCOC(=O)/C=C/[C@H](C[C@@H]1CCNC1=O)NC(=O)[C@H](Cc1ccccc1)n1cccc(NC(=O)OCc2ccccc2)c1=O [Compound 19, trans-(2′S,3′″S,4S)-4-[2′-(3″-Benzyloxy-carbonylamino-2″-oxo-2″H-pyridin-1″-yl)-3′-phenylpropionylamino]-5-(2′″-oxopyrrolidin-3′″-yl)pent-2-enoic Acid Ethyl Ester] | >333
9 | Cc1cc(C(=O)Nc2cccn([C@@H](Cc3ccc(F)cc3)C(=O)N[C@H](/C=C3\CCOC3=O)C[C@@H]3CCNC3=O)c2=O)no1 [Compound 20, trans-(2″S,2″″S,3″″″S)-5-Methylisoxazole-3-carboxylic Acid (1′-{2″-(4′″-fluorophenyl)-1″-[2″″-(2′″″-oxodihydrofuran-3′″″-ylidene)-1″″-(2″″″oxopyrrolidin-3″″″-ylmethyl)ethylcarbamoyl]ethyl}-2′-oxo-1′,2′-dihydropyridin-3′-yl)amide] | >667
10 | CCOC(=O)/C=C/[C@H](C[C@H]1CCNC1=O)NC(=O)[C@H](Cc1ccccc1)n1cccc(NC(=O)OCc2ccccc2)c1=O [Compound 21, trans-(2′S,3′″R,4S)-4-[2′-(3″-Benzyloxycarbonylamino-2″-oxo-2″H-pyridin-1″-yl)-3′-phenylpropionylamino]-5-(2′″-oxopyrrolidin-3′″-yl)pent-2-enoic Acid Ethyl Ester] | >21
11 | CCOC(=O)/C=C/[C@H](C[C@@H]1CCNC1=O)NC(=O)Cn1cccc(NC(=O)c2cc(C)on2)c1=O [Compound 22, trans-(4S,3″″S)-4-(2′-{3″-[(5′″-Methylisoxazole-3′″-carbonyl)amino]-2″-oxo-2″H-pyridin-1″-yl}acetylamino)-5-(2″″-oxopyrrilidin-3″″-yl)pent-2-enoic Acid Ethyl Ester] | >10
12 | O=C1OCC/C1=C\[C@H](C[C@@H]1CCNC1=O)NC(=O)[C@H](Cc1ccc(F)cc1)n1cccc(NC(=O)c2cc(Cl)on2)c1=O [Compound 23, trans-(2″S,2″S,3″″″S)-5-Chloroisoxazole-3-carboxylic Acid (1′-{2″-(4′″-fluorophenyl)-1″-[2″″-(2′″″-oxodihydrofuran-3′″″-ylidene)-1″″-(2″″″-oxopyrrolidin-3″″″-ylmethyl)ethylcarbamoyl]ethyl}-2′-oxo-1′,2′′-dihydropyridin-3′-yl)amide] | >156
13 | CCOC(=O)/C=C/[C@H](CCC(N)=O)NC(=O)[C@H](Cc1ccccc1)n1cccc(NC(=O)c2cc(Cl)on2)c1=O [Compound 30, trans-(2′S,4S)-6-Carbamoyl-4-(2′-{3″-[(5′″-chloroisoxazole-3′″-carbonyl)amino]-2″-oxo-2″H-pyridin-1″-yl}-3′-phenylpropionylamino)hex-2-enoic Acid Ethyl Ester] | >416
14 | CCOC(=O)/C=C/[C@H](CCC(N)=O)NC(=O)[C@@H]1CCc2ccc(NC(=O)OCc3ccccc3)c(=O)n21 [Compound 36, trans-(3′S,4S)-4-[(6′-Benzyloxycarbonylamino-5′-oxo-1′,2′,3′,5′-tetrahydroindolizine-3′-carbonyl)amino]-6-carbamoylhex-2-enoic Acid Ethyl Ester] | >11
15 | Cc1cc(C(=O)Nc2ccc3n(c2=O)[C@H](C(=O)N[C@H](/C=C2\CCOC2=O)C[C@@H]2CCNC2=O)CC3)no1 [Compound 38, trans-(2″S,3S,3′″S)-6-[(5′-Methylisoxazole-3′-carbonyl)amino]-5-oxo-1,2,3,5-tetrahydroindolizine-3-carboxylic Acid [2″-(2′″-oxodihydrofuran-3′″-ylidene)-1″-(2″″-oxopyrrolidin-3″″-ylmethyl)ethyl]amide] | >6
16 | Cc1cc(CCCCCCCOc2ccc(C3=NCCO3)cc2)on1 [WIN 51711, reference compound] | >77
17 | Cc1cc(CCCCCCCOc2ccc(C3=N[C@@H](C)CO3)cc2)on1 [WIN 52084, reference compound] | >143
18 | Cc1cc(CCCCCOc2c(Cl)cc(C3=NCCO3)cc2Cl)on1 [WIN 54954, reference compound] | >30
